Results of unrelated studies side by side (data: NIAID ChemDB).

Common to all: tests in culture; organism: Rhinovirus; measure: EC50

ECn: concentration that inhibits the pathogen or its effect by n%. Neighbouring rows are from separate reports.

structure | strain | cell line | method | value
CN(C)c1nc(C(F)(F)F)nc2c1ncn2Cc1ccc(Cl)c(N)c1 | Serotype 29 | M-HELA | plaque count | >8 µM
CSc1nsc(-c2ccc(OCCCCOc3ccccc3)cc2)c1C#N | Serotype 9 (group B) | HELA-OHIO | cytopathic effect | >20 µM
CO/N=C/c1ccc(OCCC2CCN(c3ccc(C)nn3)CC2)c(C)c1 | TYPE 1A | KB | cytopathic effect / visual reading | <0.003 µg/mL
Cc1c(-c2ccccc2)n(-c2ccc(F)cc2)c2ccc(C(C)C)cc2c1=O | TYPE 2/ HGP | HELA-OHIO | cytopathic effect | 0.038 µg/mL
CCOc1noc2cc(OCCC3CCN(c4nnc(C)s4)CC3)ccc12 | Serotype 2 | MRC-5 | cytopathic effect | 0.007 µg/mL
CCOC(=O)c1ccc(OCCCOc2ccc(-c3snc(SC)c3C#N)cc2)cc1 | Serotype 72 (group A) | HELA-OHIO | cytopathic effect | >2 µM
CCc1nc(-c2cc(C)c(OCCCc3cc(COC)no3)c(C)c2)no1 | Serotype 21 | HeLa | cytopathic effect | 0.01 µg/mL
Cc1cc(CCCOc2c(C)cc(-c3noc(C(F)(F)F)n3)cc2C)on1 | Isolate 8 | OHIO HELA-I | cytopathic effect / visual reading | 0.17 µg/mL
CCn1c2c(c(=O)c3cc(C(C)C)ccc31)Cc1ccccc1-2 | 8/MRH | HELA-OHIO | cytopathic effect | 0.46 µg/mL
Cc1cc(CCCCCOc2c(Cl)cc(C3=NCCO3)cc2Cl)on1 | TYPE 38 | HeLa | plaque count | 0.018 µg/mL
CSc1nsc(-c2ccc(OCc3ccccc3)cc2)c1C#N | Serotype 89 (group B) | HELA-OHIO | cytopathic effect | 2 µM
CCO/N=C/c1ccc(OCCC2CCN(c3ccc(C)nn3)CC2)cc1O | TYPE 14 | MRC-5 | cytopathic effect / visual reading | 0.0072 µg/mL
CSc1nsc(-c2ccc(OC(C)(C)C)cc2)c1C#N | Serotype 9 (group B) | HELA-OHIO | cytopathic effect | 5 µM
CSc1nsc(-c2ccc(OCCCCOc3ccc(C#N)cc3)cc2)c1C#N | Serotype 51 (group B) | HELA-OHIO | cytopathic effect | >2 µM
CCOc1nc2ccc(OCCC3CCN(c4cc(C)c(C)nn4)CC3)cc2o1 | Serotype 2 | MRC-5 | cytopathic effect | 0.101 µg/mL
Cc1ccc(Cn2cnc3c(N(C)C)nc(C(F)(F)F)nc32)c(C)c1 | Serotype 13 | M-HELA | plaque count | >8 µM
CCCn1c2ccccc2c2nnc(SC)nc21 | 1059 | WI-38 | plaque count | 20 µg/mL
CSc1nsc(-c2ccc(OCCCOc3ccc(C#N)cc3)cc2)c1C#N | Serotype 41 (group B) | HELA-OHIO | cytopathic effect | >2 µM
CCO/N=C/c1ccc(OCCCCN2CCN(c3cccnn3)CC2)cc1 | TYPE 1A | KB | cytopathic effect / visual reading | 0.05 µg/mL
CCOC(=O)c1ccc(OCCC2CCN(c3ccc(C)nn3)CC2)cc1 | Baylor 3 (LDL receptor group 47) | KB | neutral red | 0.033 µM
CN(C)c1nc(C(F)(F)F)nc2c1ncn2Cc1ccc([N+](=O)[O-])cc1 | Serotype 1B | M-HELA | plaque count | 0.07 µM
CSc1nsc(-c2ccc(OCCCCOc3ccc([N+](=O)[O-])cc3)cc2)c1C#N | Serotype 63 (group B) | HELA-OHIO | cytopathic effect | >0.5 µM
COc1ccc(-c2snc(SC)c2C#N)cc1 | Serotype 86 (group A) | HELA-OHIO | cytopathic effect | >12 µM
Cn1c2ccccc2c2nnc(NCCCCCCO)nc21 | HGP | WI-38 | plaque count | 20 µg/mL
CCOc1nc2ccc(OCCC3CCN(c4ccc(C)nn4)CC3)cc2s1 | Serotype 14 | MRC-5 | cytopathic effect | 0.006 µg/mL
CN(C)c1nc(C(F)(F)F)nc2c1ncn2Cc1ccc(F)cc1 | Serotype 5 | M-HELA | plaque count | >8 µM
S=c1nc2c(n[nH]1)c1ccccc1n2CCc1ccccc1 | 1059 | WI-38 | plaque count | 10 µg/mL
CCOC(=O)c1ccc(OCCC2CCN(c3ccc(C)nn3)CC2)cc1 | Serotype 36 | WI-38 | cytopathic effect | <0.1 µg/mL
CN(C)c1nc(C(F)(F)F)nc2c1ncn2Cc1ccc(Cl)c(NC=O)c1 | Serotype 1B | M-HELA | plaque count | 0.56 µM
CCC(=O)OCCCNc1nnc2c3ccccc3n(C)c2n1 | 1059 | WI-38 | plaque count | 220 µg/mL
CCOc1cc(CCCOc2c(C)cc(-c3noc(C)n3)cc2C)on1 | Serotype 67 | HeLa | cytopathic effect | 0.106 µg/mL
Cn1c2ccccc2c2nnc(NCCCCO)nc21 | 1059 | WI-38 | plaque count | 20 µg/mL
CCOc1ncnc2cc(OCCC3CCN(c4ccc(C)nn4)CC3)ccc12 | Serotype 14 | MRC-5 | cytopathic effect | 0.12 µg/mL
CSc1nsc(-c2ccc(OCCCOc3ccc([N+](=O)[O-])cc3)cc2)c1C#N | Serotype 29 (group B) | HELA-OHIO | cytopathic effect | >1 µM
Cc1ccc(Cn2cnc3c(N(C)C)nc(C(F)(F)F)nc32)cc1 | Serotype 21 | M-HELA | plaque count | >8 µM
Cc1c(-c2ccccc2)n(-c2cccc(F)c2)c2ccc(C(C)C)cc2c1=O | 1A/E28 | HELA-OHIO | cytopathic effect | 1 µg/mL
CCSc1nc2ccc(OCCC3CCN(c4ccc(C)nn4)CC3)cc2o1 | Serotype 14 | MRC-5 | cytopathic effect | 0.006 µg/mL
CN(c1cccc(F)c1)c1nc(C(F)(F)F)nc2c1ncn2Cc1cccc(F)c1 | Serotype 2 | M-HELA | plaque count | 5.7 µM
CSc1nsc(-c2ccc(OCCc3ccccc3)cc2)c1C#N | Serotype 29 (group B) | HELA-OHIO | cytopathic effect | 10 µM
CCSc1nc2cc(OCCC3CCN(c4ccc(C)nn4)CC3)ccc2o1 | Serotype 2 | MRC-5 | cytopathic effect | 0.004 µg/mL
Cn1c(O)c(N=NC(N)=S)c2ccccc21 | HGP | WI-38 | plaque count | 22 µg/mL
Fc1cccc(Cn2cnc3c(Nc4cccc(F)c4)nc(C(F)(F)F)nc32)c1 | Serotype 36 | M-HELA | plaque count | 3.9 µM
COCc1cc(CCCOc2c(Cl)cc(-c3noc(C)n3)cc2Cl)on1 | Serotype 6 | HeLa | cytopathic effect | 0.073 µg/mL
Cn1c2ccccc2c2nnc(NCCC(C)(C)O)nc21 | 2060 | WI-38 | plaque count | 50 µg/mL
CCOc1nc2ccc(OCCC3CCN(c4nnc(C)s4)CC3)cc2o1 | Serotype 2 | MRC-5 | cytopathic effect | 0.065 µg/mL
CO/N=C/c1cc(C)c(OCCC2CCN(c3ccc(Cl)nn3)CC2)c(C)c1 | TYPE 1A | KB | cytopathic effect / visual reading | 0.0063 µg/mL
CN(C)c1nc(C(F)(F)F)nc2c1ncn2Cc1cccc(F)c1 | Serotype 4 | M-HELA | plaque count | >8 µM
CCOc1nc2ccc(OCCC3CCN(c4cc(C)c(Cl)nn4)CC3)cc2o1 | Serotype 2 | MRC-5 | cytopathic effect | 0.012 µg/mL

Repeating the final 6 entries:

{"structure": "COCc1cc(CCCOc2c(Cl)cc(-c3noc(C)n3)cc2Cl)on1", "strain": "Serotype 6", "cell line": "HeLa", "method": "cytopathic effect", "value": "0.073 µg/mL"}
{"structure": "Cn1c2ccccc2c2nnc(NCCC(C)(C)O)nc21", "strain": "2060", "cell line": "WI-38", "method": "plaque count", "value": "50 µg/mL"}
{"structure": "CCOc1nc2ccc(OCCC3CCN(c4nnc(C)s4)CC3)cc2o1", "strain": "Serotype 2", "cell line": "MRC-5", "method": "cytopathic effect", "value": "0.065 µg/mL"}
{"structure": "CO/N=C/c1cc(C)c(OCCC2CCN(c3ccc(Cl)nn3)CC2)c(C)c1", "strain": "TYPE 1A", "cell line": "KB", "method": "cytopathic effect / visual reading", "value": "0.0063 µg/mL"}
{"structure": "CN(C)c1nc(C(F)(F)F)nc2c1ncn2Cc1cccc(F)c1", "strain": "Serotype 4", "cell line": "M-HELA", "method": "plaque count", "value": ">8 µM"}
{"structure": "CCOc1nc2ccc(OCCC3CCN(c4cc(C)c(Cl)nn4)CC3)cc2o1", "strain": "Serotype 2", "cell line": "MRC-5", "method": "cytopathic effect", "value": "0.012 µg/mL"}